Anti-infective test results gathered from many reports (values: NIAID ChemDB through PubChem).

Shared fields: growth or infection tests; agent: Candida tropicalis

Rows are shuffled and stem from different studies. A number after MIC or MFC names an inhibition level or a share of isolates. An empty or dashed field is not shown.

SMILES | strain | measure | read by | result
COc1cc(/C=C2\SC(=S)NC2=O)cc(OC)c1OCC(O)(Cn1cncn1)c1ccc(F)cc1F | ATCC 750 | MIC50 | broth dilution | 16 µg/mL
CC1CC(=O)N(c2ccc([N+](=O)[O-])cc2)C1=O | CCC 131-2000 | MIC | broth dilution / turbidity | 125 µg/mL
O=C1N[C@H](Cc2ccccc2)C(=O)N2CCC[C@H]12 | MTCC 184 | MIC100 | broth dilution | 32 µg/mL
O=C1C=CC(=O)N1CCN1CCOCC1 | KKP 334 | MIC80 | broth dilution | 64 µg/mL
C[C@@H]1CC(=O)N(c2ccc([N+](=O)[O-])cc2)C1=O | CCC 131-2000 | MIC | broth dilution / turbidity | 125 µg/mL
CCCCCCCCCCCCCC[C@@H]1CCCN1C | HT4614 | MIC |  | 12.5 µg/mL
C=CCc1ccc(OC)c(OC)c1 | 2852 | MIC90 | turbidity | 350 µg/mL
O=C1C=CC(=O)N1C1CCCCC1 | KKP 334 | MIC80 | broth dilution | 1 µg/mL
CC[C@@H]([C@H](C)O)n1ncn(-c2ccc(N3CCN(c4ccc(OC[C@@H]5CO[C@@](Cn6cncn6)(c6ccc(F)cc6F)C5)cc4)CC3)cc2)c1=O | 15 strains | MIC90 |  | 0.125 µg/mL
CCCC[C@@H](C)/C=C(C)/C=C(\C)C(=O)N/C(=C/[C@@](C)(O)/C=C/C=C/C=C/C(=O)NC1=C(O)CCC1=O)C(=O)[C@@H]1CO1 | 2 | MIC | broth dilution | 25 µM
CN(CC(=O)Nc1ccc(OC(F)(F)F)cc1)CC(O)(Cn1cncn1)c1ccc(F)cc1F |  | MIC80 |  | 16 µg/mL
C[C@H]1[C@H](O)[C@@H](C)/C=C/C=C/C=C/C=C/C=C/C=C/C=C/[C@H](O[C@@H]2O[C@H](C)[C@@H](O)[C@H](N)[C@@H]2O)C[C@@H]2O[C@](O)(C[C@@H](O)C[C@@H](O)CC[C@H](O)[C@@H](O)C[C@@H](O)CC(=O)O[C@H]1C)C[C@H](O)[C@H]2C(=O)O | 90874 | MIC | broth dilution | 0.06 µg/mL
CN(CC(=O)Nc1ccccc1)CC(O)(Cn1cncn1)c1ccc(F)cc1F |  | MIC80 |  | 16 µg/mL
CC(C)(C)N1C(=O)C=CC1=O | KKP 334 | MIC80 | broth dilution | 0.5 µg/mL
Cc1ccc(NC(=O)CN(C)CC(O)(Cn2cncn2)c2ccc(F)cc2F)cc1 |  | MIC80 |  | 64 µg/mL
CCCCCCCCCCCCCCCC(=O)NC(CCCCN)C(=O)NC(CCCCN)C(N)=O | 4805 | MIC | broth dilution | 16 µg/mL
Cc1ccccc1N1C(=O)CC(C)C1=O | CCC 131-2000 | MIC | broth dilution / turbidity | 125 µg/mL
N=C(N)c1ccc(OCCCCCCOc2ccc(C(=N)N)cc2)cc1 | Ct2 | MIC | agar diffusion / agar | 26 µg/mL
Cc1cccc(C)c1N1C(=O)C=CC1=O | KKP 334 | MIC80 | broth dilution | 2 µg/mL
O=C1N[C@@H](Cc2c[nH]c3ccccc23)C(=O)N2CCC[C@@H]12 | MTCC 184 | MIC100 | broth dilution | 4 µg/mL
COc1ccc(C=O)cc1OCC(O)(Cn1cncn1)c1ccc(F)cc1F | ATCC 750 | MIC50 | broth dilution | 128 µg/mL
CCCCCCCC/C=C\CCCCCCCC(=O)N[C@H](C(=O)N1C[C@H](C)C[C@H]1C(=O)N[C@H](C(=O)N[C@@H](CCO)C(=O)N[C@@H](C)C=O)C(C)C)[C@@H](C)O | ATCC 750 | MIC | broth dilution / visual reading | 0.5 µg/mL
O=C(O[C@@H]1COC(=O)c2cc(O)c(O)c(O)c2-c2c(cc(O)c(O)c2O)C(=O)OC1C1OC(=O)c2cc(O)c(O)c(O)c2-c2c(O)c(O)c(O)c3c2C(=O)OC1[C@H]3O)c1cc(O)c(O)c(O)c1 | ATCC 750 | MIC100 | broth dilution | 580 µg/mL
O=C1C=CC(=O)N1c1ccc([N+](=O)[O-])cc1 | KKP 334 | MIC80 | broth dilution | 1 µg/mL
CN(CC(=O)Nc1ccc(F)c(Cl)c1)CC(O)(Cn1cncn1)c1ccc(F)cc1F |  | MIC80 |  | 1 µg/mL
O=C1C=CC(=O)N1c1ccccc1 | KKP 334 | MIC80 | broth dilution | 1 µg/mL
CCC(C)CC(C)CCCCCCCCC(=O)N[C@H]1C[C@@H](O)[C@H](NCCN)NC(=O)[C@@H]2[C@@H](O)CCN2C(=O)[C@H]([C@H](O)CCN)NC(=O)[C@H]([C@H](O)[C@@H](O)c2ccc(O)cc2)NC(=O)[C@@H]2C[C@@H](O)CN2C(=O)[C@H]([C@@H](C)O)NC1=O | Clinical isolates | MIC |  | 0.024 µg/mL
Cc1ccc(NC(=O)CN(C)CC(O)(Cn2cncn2)c2ccc(F)cc2F)cc1C |  | MIC80 |  | 4 µg/mL
COc1cc(O)c2c(c1)C(=O)c1c(cc3c(c1O)-c1c(cc(C)c(C(=O)NC(CO)C(=O)O)c1O)[C@H](OC1OC(C)C(O)C(OC4OCC(O)C(O)C4O)C1O)C3O)C2=O | ATCC 750 | MIC |  | 6.25 µg/mL
CN(CC(=O)Nc1cccc([N+](=O)[O-])c1)CC(O)(Cn1cncn1)c1ccc(F)cc1F |  | MIC80 |  | >64 µg/mL
O=C1O/C(=C\c2ccc(OCC(O)(Cn3cncn3)c3ccc(F)cc3F)cc2)C(c2ccc(F)cc2F)=C1c1ccc(Cl)cc1 | ATCC 750 | MIC50 | broth dilution | 4 µg/mL
C[C@H]1N(C(=O)c2ccc(C(F)(F)F)cc2)C[C@@H](O)O[C@@]1(Cn1cncn1)c1ccc(F)cc1F | Isolate 1 | MIC |  | >64 µg/mL
C[C@@H]1C(=O)N(Cc2ccccc2)C(=O)[C@@H]1C | CCC 131-2000 | MIC | broth dilution / turbidity | 62.5 µg/mL

The last 4 rows once more:

SMILES,strain,measure,read by,result
CN(CC(=O)Nc1cccc([N+](=O)[O-])c1)CC(O)(Cn1cncn1)c1ccc(F)cc1F,,MIC80,,>64 µg/mL
O=C1O/C(=C\c2ccc(OCC(O)(Cn3cncn3)c3ccc(F)cc3F)cc2)C(c2ccc(F)cc2F)=C1c1ccc(Cl)cc1,ATCC 750,MIC50,broth dilution,4 µg/mL
C[C@H]1N(C(=O)c2ccc(C(F)(F)F)cc2)C[C@@H](O)O[C@@]1(Cn1cncn1)c1ccc(F)cc1F,Isolate 1,MIC,,>64 µg/mL
C[C@@H]1C(=O)N(Cc2ccccc2)C(=O)[C@@H]1C,CCC 131-2000,MIC,broth dilution / turbidity,62.5 µg/mL